Experimental data taken from patent publication US20250090441A1 (THE UNIVERSITY OF HONG KONG, priority 2023, published 2025).

Assay: Remineralizing effects on enamel, chemical pH cycling model (SEM-EDS, Micro-CT, XRD)
Parameters: species or system human
Settings: 160 μM, after pH cycling
Experimental: Ten enamel slices were cut from extracted sound human molars. Each slice was separated into four blocks. A total of 40 enamel blocks were prepared. Then the surface of the enamel block was half-covered by an acid-resistant varnish. The exposed half was the experimental surface, and the varnished half was the internal control. Before use, all the enamel blocks were sterilized via autoclave (Niu et al. 2021d; Yu et al. 2018).
The pH-cycling procedure (16 h-demineralization at pH 4.5 and 8 h-remineralization at pH 7.0) was performed to enamel blocks for 8 days. The formula for demineralizing/remineralizing solution was employed from a previous study (Yu et al. 2018). […]
The structure of the enamel surface was examined using SEM (n=8 per group) (Niu et al. 2021d). […] The calcium to phosphorus molar ratio was calculated (Niu et al. 2022). The mineral loss and lesion depth on the enamel blocks were assessed using microcomputed tomography (Micro-CT) (1076, SkyScan, Antwerp, Belgium) (n=8 per group) (Niu et al. 2022). The diffraction patterns of the enamel blocks were evaluated using X-ray diffraction analysis (XRD) (Rigaku SmartLab 9 kW, […]) (n=2 per group) (Yu et al. 2018).

O=C(O)c1cc(O)c(O)c(O)c1 [GA, Gallic Acid]
X-ray diffraction reflection peak at full width and half maximum: 0.342 °
